{
  "source": "paper PMC6464118",
  "about": "(European journal of medicinal chemistry, 2019)",
  "test_system": "HIV-1 NL4-3 Nanoluc-sec virus",
  "type": "cell-based",
  "conditions": "HIV-1 NL4-3 replication in MT4 cells",
  "data": [
    {"smiles": "CC(=O)O[C@H]1[C@@H](OC(C)=O)[C@@]2(C)[C@@H]3CC[C@H]4C(C)(C)[C@@H](OC(C)=O)CC[C@@]45C[C@@]35CC[C@@]23CO[C@@]2(C(C)(C)O)CC[C@](C)(O2)[C@@H]13", "note": "[Compound 13a, (20S, 24S)-15β, 16β-Diacetoxy-18,24;20,24-diepoxy-9,19-cyclolanostane-25-hydroxy-3β-yl acetate]", "values": [
      {"measurement": "anti-HIV activity in words", "value": "equipotent"}
    ]}
  ]
}
